Laboratory results: PubChem BioAssay AID624099 (ICCB-Longwood, 2012)
The deposit covers about 21,000 reagents; below is an unselected part. Of all reagents, 497 (2.4%) got an active call. 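Higher z means weaker E2 silencing; only reporter increases were scored, and knock-downs that hurt cell survival may mask genuine repressor factors.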 Reagent sequences are not shown.

Assay: 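Knock-downs relieving repression by E2 of an HPV18 LCR luciferase reporter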 (primary screen)
System: human C33A cervical carcinoma cells (HPV-negative) stably expressing BPV1 E2 and an HPV18 LCR luciferase reporter
Knock-down reagent: siRNA pool against human genes, 40 nM
Duration: 72 h
Read-out: 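HPV18 LCR reporter light per well, converted to plate-wise z-scores that exclude control wells, and averaged over triplicate plates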
Reading the numbers: mean z-score and z-score: higher = stronger reporter signal, weaker E2 silencing
Call rule: 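Mean z ≥ 2 together with z ≥ 2 in two or more of the three replicates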

| gene symbol | mean z-score | z-score, replicate A | z-score, replicate B | z-score, replicate C | Call |
| --- | --- | --- | --- | --- | --- |
| RAB3B | 0.4 | 0.53 | 0.16 | 0.53 | inactive |
| LOC401053 (retired record) | -0.71 | -0.57 | -0.55 | -0.99 | inactive |
| KCNA1 | 0.31 | 0.24 | 0.44 | 0.25 | inactive |
| PHF14 | 0.68 | 0.19 | 0.35 | 1.5 | inactive |
| MAF | 0.04 | 0.09 | -0.14 | 0.18 | inactive |
| C5orf63 | 0.47 | 0.3 | 0.57 | 0.55 | inactive |
| CFB | -0.11 | 0.15 | -0.34 | -0.13 | inactive |
| LINC00942 | 0.57 | 0.3 | 0.33 | 1.09 | inactive |
| RAP2B | -0.16 | -0.11 | 0.03 | -0.41 | inactive |
| USP20 | -1.43 | -1.28 | -1.51 | -1.5 | inactive |
| HIRA | 0.91 | 0.82 | 1.02 | 0.9 | inactive |
| SARDH | -1.73 | -1.42 | -1.53 | -2.23 | inactive |
| TEDAR | 0.02 | 0.03 | 0.06 | -0.02 | inactive |
| SLC13A3 | 0.48 | 0.24 | 0.13 | 1.05 | inactive |
| SOD1 | 0.97 | 0.77 | 0.85 | 1.28 | inactive |
| MED6 | -3.01 | -3.11 | -3.1 | -2.82 | inactive |
| GSTP1 | 0.63 | 0.55 | 0.75 | 0.58 | inactive |
| SETX | -1.81 | -1.78 | -1.72 | -1.94 | inactive |
| TNFSF10 | 1.17 | 1.23 | 1.14 | 1.14 | inactive |
| ARMC10 | 0.7 | 0.78 | 0.67 | 0.65 | inactive |
| COL5A1 | 0.35 | -0.01 | 0.57 | 0.48 | inactive |
| CIMIP6 | 2.35 | 2.12 | 2.42 | 2.49 | active |
| SNX12 | 0.49 | 0.73 | 0.4 | 0.34 | inactive |
| SACK1A | 1.79 | 1.69 | 1.92 | 1.77 | inactive |
| TMEM67 | 1 | 0.67 | 1.03 | 1.3 | inactive |
| CLC | 0.03 | -0.06 | 0.14 | -0.01 | inactive |
| MARCHF3 | -0.88 | -1.17 | -0.8 | -0.65 | inactive |
| OR5F1 | 0.81 | 0.83 | 0.81 | 0.79 | inactive |
| ATP5F1C | -0.38 | -0.51 | -0.34 | -0.29 | inactive |
| PLEK | -1.05 | -1.14 | -1.02 | -0.99 | inactive |
| EDF1 | -1.38 | -1.27 | -1.19 | -1.69 | inactive |
| SEC23B | 0.63 | 0.46 | 0.5 | 0.94 | inactive |
| SMIM45 | -0.03 | 0 | -0.13 | 0.03 | inactive |
| LACTB2 | 0.62 | 0.14 | 0.75 | 0.97 | inactive |
| CLXN | 0.25 | 0.5 | 0.25 | 0 | inactive |
| RPL7P48 | 0.27 | -0.04 | 0.4 | 0.43 | inactive |
| POLDIP2 | 1.17 | 1.03 | 1.55 | 0.94 | inactive |
| GZMB | -0.44 | -0.96 | 0.08 | -0.45 | inactive |
| RCSD1 | -0.08 | 0.19 | -0.39 | -0.04 | inactive |
| FBP2 | -1.75 | -1.62 | -1.68 | -1.94 | inactive |
| LOC391555 (retired record) | 0.11 | 0.48 | 0.11 | -0.26 | inactive |
| CBY2 | 0.04 | 0.05 | -0.03 | 0.11 | inactive |
| PACSIN3 | -0.39 | -0.28 | -0.27 | -0.62 | inactive |
| NRSN1 | -0.79 | -0.6 | -1.13 | -0.63 | inactive |
| URI1 | -0.6 | -0.72 | -0.66 | -0.41 | inactive |
| CD59 | -0.04 | 0.07 | -0.15 | -0.04 | inactive |
| IL2RB | 0.1 | -0.1 | 0.21 | 0.19 | inactive |
| RAP2A | 1.39 | 1.07 | 1.33 | 1.77 | inactive |
| TMPRSS3 | -0.06 | 0.11 | -0.2 | -0.08 | inactive |
| CCDC196 | 0.21 | -0.2 | 0.2 | 0.64 | inactive |
| NUDT22 | 1.9 | 1.56 | 2.83 | 1.3 | inactive |
| GK5 | -0.08 | -0.21 | -0.25 | 0.22 | inactive |
| TMOD2 | 2.29 | 2.69 | 2.21 | 1.99 | active |
| GOLT1A | -0.06 | -0.28 | 0.24 | -0.14 | inactive |
| PTGDR2 | 1.44 | 1.61 | 1.24 | 1.46 | inactive |
| POU1F1 | 1.24 | 0.9 | 1.13 | 1.7 | inactive |
| IQSEC1 | 0.06 | 0.09 | 0.09 | 0.01 | inactive |
